In US6051373, “Methods for screening for inhibitors of the transcription-enhancing activity of the X protein of hepatitis B virus” (Scriptgen Pharmaceuticals, Inc.):
The exact form of at least one protein or probe is not confirmed.

Assays:
Experiment in all cases: EMSA
[1] = system: GST-Fos-ZTA chimera (c-Fos 133-162 + ZTA 197-229); conditions: increased by pX; purified recombinant protein; protein details: GST; label: 32P
c-Jun derivative = conditions: enhanced by pX; purified recombinant protein; protein details: His; label: 32P
[2] = system: C/EBP delta1-2 derivative; conditions: enhanced by pX; site printed in text with a stray F; purified recombinant protein; label: 32P

AGCTTTGACTCATCCCGGA (double strand) [collagenase TRE oligoduplex]
binding result [1]: binds | binding result (c-Jun derivative): binds

TGCAGATTGCGCAATCTGCA (double strand) [C/EBP binding site]
binding result [2]: binds
